Data source: PubChem BioAssay AID1259414 (Drosophila RNAi Screening Center, 2018)

- Assay: 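Genome-wide screen for host control of endosymbiont load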 (primary screen)
- Cells: Drosophila JW18 cells infected with Wolbachia
- Reagents: long dsRNA against Drosophila genes, 0.25 µg dsRNA per well of a 384-well plate
- Time to read-out: 5 days
- Challenge: cells persistently infected with Wolbachia before knock-down; no added drug
- Measurement: 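Automated imaging of bacterial rRNA staining divided by host cell count, reported as plate-normalised robust z-score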
- Reading the numbers: Wolbachia per cell robust z: higher = more Wolbachia per host cell than the plate typical
- Active means: 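Hit when robust z is 1.5 or more, or -1.5 or less, in at least two of three replicates; excludes dsRNAs with several or no targets, genes not expressed in JW18 and well A1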
In all, the deposit lists about 24,000 reagents; shown is an unselected part of those with a known target gene and a result. Over the whole deposit, about 1,210 (5%) were called active. 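Inactive calls also include excluded dsRNAs with several or no targets, genes unexpressed in JW18, and well A1, regardless of score.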 Unmarked entries are inactive.

With Sf3b1 [DRSC00535], what does the deposit list?
Wolbachia per cell robust z, rep 1: 5.26 (active); Wolbachia per cell robust z, rep 2: 0.87; Wolbachia per cell robust z, rep 3: 6.51

How did the screen score Sf3b1 [DRSC39103]?
Wolbachia per cell robust z, rep 1: 2.69 (active); Wolbachia per cell robust z, rep 2: 1.44; Wolbachia per cell robust z, rep 3: 5.43

For CG7289 [DRSC00697], what does the deposit list?
Wolbachia per cell robust z, rep 1: -3.63; Wolbachia per cell robust z, rep 2: 0.377; Wolbachia per cell robust z, rep 3: 0.0565

For aurA [DRSC16905], what does the deposit list?
Wolbachia per cell robust z, rep 1: -0.412; Wolbachia per cell robust z, rep 2: 0.777; Wolbachia per cell robust z, rep 3: -3.81

What did the screen give for aurA [DRSC27171]?
Wolbachia per cell robust z, rep 1: 1.16; Wolbachia per cell robust z, rep 2: 1.45; Wolbachia per cell robust z, rep 3: 1.23

For aurA [DRSC41549], what does the deposit list?
Wolbachia per cell robust z, rep 1: -2.03 (active); Wolbachia per cell robust z, rep 2: -0.851; Wolbachia per cell robust z, rep 3: -3.72

With neo [DRSC16316], what was measured?
Wolbachia per cell robust z, rep 1: -3.8; Wolbachia per cell robust z, rep 2: 0.215; Wolbachia per cell robust z, rep 3: -0.732

With neo [DRSC24164], what does the deposit list?
Wolbachia per cell robust z, rep 1: 0.15; Wolbachia per cell robust z, rep 2: 0.677; Wolbachia per cell robust z, rep 3: -0.78

With east [DRSC18770], how do the results read?
Wolbachia per cell robust z, rep 1: 0.868; Wolbachia per cell robust z, rep 2: 1.13; Wolbachia per cell robust z, rep 3: -0.662

With east [DRSC23626], what does the deposit list?
Wolbachia per cell robust z, rep 1: 0.978; Wolbachia per cell robust z, rep 2: -0.662; Wolbachia per cell robust z, rep 3: 0.523

2 of these entries in another layout.
gene | DRSC id | Wolbachia per cell robust z, rep 1 | Wolbachia per cell robust z, rep 2 | Wolbachia per cell robust z, rep 3
neo | DRSC24164 | 0.15 | 0.677 | -0.78
east | DRSC18770 | 0.868 | 1.13 | -0.662

The list goes on.
What did the screen give for CG8490 [DRSC07194]?
Wolbachia per cell robust z, rep 1: 0.0985; Wolbachia per cell robust z, rep 2: 1.03; Wolbachia per cell robust z, rep 3: 0.312

Which result is listed for CG8490 [DRSC27075]?
Wolbachia per cell robust z, rep 1: -5.73; Wolbachia per cell robust z, rep 2: -0.266; Wolbachia per cell robust z, rep 3: 0.327

With Ask1 [DRSC16789], how do the results read?
Wolbachia per cell robust z, rep 1: -0.198 (active); Wolbachia per cell robust z, rep 2: -4.15; Wolbachia per cell robust z, rep 3: -2.29

What did the screen give for Ask1 [DRSC21697]?
Wolbachia per cell robust z, rep 1: -0.869; Wolbachia per cell robust z, rep 2: -0.755; Wolbachia per cell robust z, rep 3: -1.63

For Dcr-1 [DRSC15646], what was measured?
Wolbachia per cell robust z, rep 1: 0.000478; Wolbachia per cell robust z, rep 2: -0.772; Wolbachia per cell robust z, rep 3: -0.427

For Dcr-1 [DRSC27421], what was measured?
Wolbachia per cell robust z, rep 1: 0.767; Wolbachia per cell robust z, rep 2: 0.0862; Wolbachia per cell robust z, rep 3: 0.497
